Results of unrelated studies side by side (data: NIAID ChemDB).

Common to all: growth or infection tests; agent: Influenza A virus

Percent inhibition refers to the dose given; in toxicity tests it is the harm to the cells.

smiles | cell line | strain or isolate | tested at | read-out | value
CC(=O)N[C@H]1[C@H]([C@H](O)[C@H](O)CO)OC(C(=O)O)=C[C@@H]1N=C(N)N | MDCK | A/Singapore/1/57 |  | EC50 | 0.014 µM
N#CNc1nncs1 | MDCK | A/ANN ARBOR |  | EC50 | 0.5 µg/mL
CC(=O)N[C@H]1[C@H]([C@H](O)[C@H](O)CO)OC(C(=O)O)=C[C@@H]1N=C(N)N | MDCK | A/Singapore/1/57 |  | EC50 | 0.014 µM
OC(Cn1ccnc1)C12CC3CC(CC(C3)C1)C2 | MDCK | H2N2 A/Singapore/1/57 | 1 µg/mL | inhibition | 100%
NC(=O)c1ncn([C@@H]2O[C@H](CO)[C@@H](O)[C@H]2O)n1 | MDCK | H2N2 A2 JAPAN/305/57 |  | EC50 | 22.1 µM
CC(=O)N[C@H]1[C@H]([C@H](O)[C@H](O)CO)OC(C(=O)O)=C[C@@H]1N | MDCK | H2N2 A/Singapore/1/57 |  | EC50 | 1.5 µM
CC12CC3CC(C)(C1)CC(N)(C3)C2 | MDCK | H2N2 A/Singapore/1/57 | 8 µg/mL | inhibition | 100%
NC12CC3CC(CC(C3)C1)C2 | MDCK cells | H2N3 A/HK/7/87 |  | EC50 | 2.4 µM
C1CCN(CCN2CCCCCC2C23CC4CC(CC(C4)C2)C3)CC1 | MDCK | H2N2 A2 JAPAN/305/57 |  | EC50 | >840 µM
NC12CC3CC(CC1C3)C2 | MDCK | H2N2 A/Singapore/1/57 | 0.8 µg/mL | inhibition | 100%
C1CNC(C23CC4CC(CC(C4)C2)C3)C1 | MDCK | H2N2 A2 JAPAN/305/57 |  | EC50 | 2.5 µM
O=C(O)C(Cl)(Cl)P(=O)(O)O |  | A/JAPAN |  | EC50 | 320 µM
CN1CCC2(C1)C1CC3CC(C1)CC2C3 | Chick embryo fibroblasts | A2 JAPAN | 100 µM | inhibition | >70%
CC(N)C12CC3CC(CC(C3)C1)C2 | MDCK | H2N3 A/HK/7/87 |  | EC50 | 0.05 µM
NC12CC3CC(CC(C3)C1)C2 | MDCK | H2N2 A2 JAPAN/305/57 |  | EC50 | 45 µM
CC1N(N)C12C1CC3CC(C1)CC2C3 | MDCK | H2N2 A/Singapore/1/57 | 1 µg/mL | inhibition | 100%
CN1CCCCCC1C12CC3CC(CC(C3)C1)C2 | MDCK | H2N2 A2 JAPAN/305/57 |  | EC50 | >39 µM
NC12CC3CC(CC(C3)C1)C2 | MDCK | A/Singapore/1/57 |  | EC50 | 3 µM
N=C(N)c1ncn([C@@H]2O[C@H](CO)[C@@H](O)[C@H]2O)n1 | MDCK | H5N1 A/gull/PA/4175/83 |  | EC50 | 18 µg/mL
CCC12CC3(C)CC(C)(CC([NH3+])(C3)C1)C2 | MDCK | H2N2 A/Singapore/1/57 | 8 µg/mL | inhibition | 100%
C1CCC2(CC1)CCNC2 | Chick embryo fibroblasts | A2 JAPAN | 100 µM | inhibition | <20%
[NH3+]C1CCC(C23CC4CC(CC(C4)C2)C3)CC1 | MDCK | H2N2 A/Singapore/1/57 | 2 µg/mL | inhibition | 100%
C1CCN(CCN2CCCCC2C23CC4CC(CC(C4)C2)C3)CC1 | MDCK | H2N2 A2 JAPAN/305/57 |  | EC50 | >561 µM
CCN1CCC2(C1)C1CC3CC(C1)CC2C3 | Chick embryo fibroblasts | A2 JAPAN | 100 µM | inhibition | 40–70%
NC(=O)c1nc(F)c[nH]c1=O | MDCK | H2N2 Kaizuka/2/65 |  | EC50 | 0.029 µg/mL
CC(C)C12CC3CC(CC([NH3+])(C3)C1)C2 | MDCK | H2N2 A/Singapore/1/57 | 1 µg/mL | inhibition | 100%

Again, the opening 2 rows:

| smiles | cell line | strain or isolate | tested at | read-out | value |
|---|---|---|---|---|---|
| CC(=O)N[C@H]1[C@H]([C@H](O)[C@H](O)CO)OC(C(=O)O)=C[C@@H]1N=C(N)N | MDCK | A/Singapore/1/57 |  | EC50 | 0.014 µM |
| N#CNc1nncs1 | MDCK | A/ANN ARBOR |  | EC50 | 0.5 µg/mL |

a–b is a range or a potency band. An empty or dashed field is not shown. ECn is the concentration giving n% inhibition of infection, replication or growth. Lines come from different laboratories, so protocols vary.